Measured data: PubChem BioAssay AID624099 (ICCB-Longwood, 2012)
The whole screen tested about 21,000 reagents; shown is an unselected part. Over the whole deposit, 497 (2.4%) are marked active. 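Higher z means weaker E2 silencing; only reporter increases were scored, and knock-downs that hurt cell survival may mask genuine repressor factors.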

- Assay: 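Host factors E2 relies on to silence an HPV18 LCR reporter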 (primary screen)
- Cell system: human C33A cervical carcinoma cells (HPV-negative) stably expressing BPV1 E2 and an HPV18 LCR luciferase reporter
- Reagents: siRNA pool against human genes, 40 nM
- Time to read-out: 72 h
- Detection: 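Per-well luciferase luminescence, z-scored on each plate against the plate mean and SD with control wells left out, then averaged across three replicate plates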
- Scale: mean z-score and z-score: higher = stronger reporter signal, weaker E2 silencing
- Rule for the call: 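Mean z ≥ 2 together with z ≥ 2 in two or more of the three replicates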

With LOC388853 (retired record), what was measured?
mean z-score: -0.44; z-score, replicate A: -0.61; z-score, replicate B: -0.18; z-score, replicate C: -0.52; Call: inactive

How did the screen score MTPN (myotrophin)?
mean z-score: -1.94; z-score, replicate A: -1.92; z-score, replicate B: -1.85; z-score, replicate C: -2.05; Call: inactive

What did the screen give for EIF3C (eukaryotic translation initiation factor 3 subunit C)?
mean z-score: -2.86; z-score, replicate A: -2.4; z-score, replicate B: -2.91; z-score, replicate C: -3.28; Call: inactive

With ARHGAP15 (Rho GTPase activating protein 15), what does the deposit list?
mean z-score: 0.46; z-score, replicate A: 0.41; z-score, replicate B: 0.49; z-score, replicate C: 0.49; Call: inactive

For CITED4 (Cbp/p300 interacting transactivator with ED-rich tail 4), how do the results read?
mean z-score: -0.7; z-score, replicate A: -0.8; z-score, replicate B: -0.58; z-score, replicate C: -0.73; Call: inactive

For LOC389070 (retired record), how do the results read?
mean z-score: -1.38; z-score, replicate A: -1.81; z-score, replicate B: -1.36; z-score, replicate C: -0.96; Call: inactive

For FGF14 (fibroblast growth factor 14), what was measured?
mean z-score: 1.09; z-score, replicate A: 0.99; z-score, replicate B: 1.26; z-score, replicate C: 1.02; Call: inactive

With TAS2R20 (taste 2 receptor member 20), what was measured?
mean z-score: 0.47; z-score, replicate A: 0.43; z-score, replicate B: 0.35; z-score, replicate C: 0.62; Call: inactive

For CXorf38 (chromosome X open reading frame 38), what was measured?
mean z-score: -0.49; z-score, replicate A: -0.74; z-score, replicate B: -0.14; z-score, replicate C: -0.58; Call: inactive

What is on record for OLFML3 (olfactomedin like 3)?
mean z-score: 0.5; z-score, replicate A: 1.67; z-score, replicate B: -0.08; z-score, replicate C: -0.07; Call: inactive

What did the screen give for OSBPL1A (oxysterol binding protein like 1A)?
mean z-score: 0.53; z-score, replicate A: 0.85; z-score, replicate B: 0.58; z-score, replicate C: 0.16; Call: inactive

With C2CD4B (C2 calcium dependent domain containing 4B), how do the results read?
mean z-score: -0.41; z-score, replicate A: -0.94; z-score, replicate B: -0.3; z-score, replicate C: -0.01; Call: inactive

What did the screen give for FAM216A (family with sequence similarity 216 member A)?
mean z-score: -0.49; z-score, replicate A: -0.1; z-score, replicate B: -0.54; z-score, replicate C: -0.84; Call: inactive

Which result is listed for SNRNP70 (small nuclear ribonucleoprotein U1 subunit 70)?
mean z-score: 0.79; z-score, replicate A: 0.88; z-score, replicate B: 0.74; z-score, replicate C: 0.75; Call: inactive

For ZNF33B (zinc finger protein 33B), what was measured?
mean z-score: -0.03; z-score, replicate A: 0.07; z-score, replicate B: -0.04; z-score, replicate C: -0.12; Call: inactive

With AVL9 (AVL9 cell migration associated), what was measured?
mean z-score: -0.25; z-score, replicate A: -0.24; z-score, replicate B: -0.32; z-score, replicate C: -0.19; Call: inactive

For LOC387912 (retired record), what does the deposit list?
mean z-score: 0.54; z-score, replicate A: 0.15; z-score, replicate B: 0.17; z-score, replicate C: 1.32; Call: inactive

What is on record for NPPA (natriuretic peptide A)?
mean z-score: 0.62; z-score, replicate A: 0.75; z-score, replicate B: 0.74; z-score, replicate C: 0.38; Call: inactive

For GLIS3 (GLIS family zinc finger 3), what was measured?
mean z-score: -0.78; z-score, replicate A: -0.79; z-score, replicate B: -0.6; z-score, replicate C: -0.95; Call: inactive

For ZNF517 (zinc finger protein 517), what does the deposit list?
mean z-score: 1.01; z-score, replicate A: 0.99; z-score, replicate B: 1.07; z-score, replicate C: 0.96; Call: inactive

For QPCT (glutaminyl-peptide cyclotransferase), how do the results read?
mean z-score: 0.41; z-score, replicate A: 0.27; z-score, replicate B: 0.46; z-score, replicate C: 0.5; Call: inactive

With LOC400551 (retired record), what does the deposit list?
mean z-score: -1.46; z-score, replicate A: -1.67; z-score, replicate B: -1.34; z-score, replicate C: -1.38; Call: inactive

What is on record for CMKLR1 (chemerin chemokine-like receptor 1)?
mean z-score: 0.62; z-score, replicate A: 0.76; z-score, replicate B: 0.47; z-score, replicate C: 0.63; Call: inactive

What is on record for ARMH4 (armadillo like helical domain containing 4)?
mean z-score: 0.54; z-score, replicate A: 1.09; z-score, replicate B: 0.38; z-score, replicate C: 0.17; Call: inactive

For SFTA3 (surfactant associated 3), how do the results read?
mean z-score: -0.48; z-score, replicate A: -0.38; z-score, replicate B: -0.37; z-score, replicate C: -0.67; Call: inactive

What is on record for CST6 (cystatin E/M)?
mean z-score: 0.82; z-score, replicate A: 1.26; z-score, replicate B: 0.61; z-score, replicate C: 0.58; Call: inactive

What did the screen give for LOC389669 (retired record)?
mean z-score: -0.52; z-score, replicate A: -0.88; z-score, replicate B: -0.42; z-score, replicate C: -0.26; Call: inactive

2 entries from above, ordered by “z-score, replicate B”, ascending:
ARMH4 (armadillo like helical domain containing 4) → mean z-score: 0.54; z-score, replicate A: 1.09; z-score, replicate B: 0.38; z-score, replicate C: 0.17; Call: inactive
CMKLR1 (chemerin chemokine-like receptor 1) → mean z-score: 0.62; z-score, replicate A: 0.76; z-score, replicate B: 0.47; z-score, replicate C: 0.63; Call: inactive
